PubChem BioAssay AID1224833 – University of Georgia | 2016
In all, the deposit lists about 12,000 reagents; this is a random part of them. About 5,600 of all reagents (46%) count as active. 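Active calls cover z-scores past 1 in both directions, so they include lowered as well as raised rotavirus replication.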 Unmarked entries are inactive.

Purpose: 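Human genes whose knock-down alters rotavirus replication in monkey cells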 (primary screen)
System: monkey MA104 kidney cells
Reagents: siRNA pool against human genes, 50 nM
Duration: 48 h knock-down before infection; read 24 h after infection
Challenge: infection with rotavirus strain RV3 two days after transfection; infectious dose for this stage not given
Measurement: 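Rotavirus antigen per well by fluorescent immunoassay, normalised to non-targeting control wells on each plate and given as a standard z-score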
Scale: z-score vs non-targeting control: higher = more rotavirus replication than with non-targeting control
Active means: In these data the active calls have z-score vs non-targeting control at about -1 or lower, or at about 1 or higher
Meaning of the calls: active = z-score beyond 1 either way; inactive = z-score within 1 of zero

The first 4 entries, ahead of the listing:
gene	PubChem SID	z-score vs non-targeting control
GRHL3 (grainyhead like transcription factor 3)	SID329580390	0.561
SYT17 (synaptotagmin 17)	SID329579200	-1.61 (active)
GPANK1 (G-patch domain and ankyrin repeats 1)	SID329575968	0.25
PRXL2B (peroxiredoxin like 2B)	SID329582572	-1.47 (active)

Results, from the start:
gene	PubChem SID	z-score vs non-targeting control
GRHL3 (grainyhead like transcription factor 3)	SID329580390	0.561
SYT17 (synaptotagmin 17)	SID329579200	-1.61 (active)
GPANK1 (G-patch domain and ankyrin repeats 1)	SID329575968	0.25
PRXL2B (peroxiredoxin like 2B)	SID329582572	-1.47 (active)
SEPTIN5 (septin 5)	SID329574890	0.516
ZNF410 (zinc finger protein 410)	SID329580397	-0.0014
ELAVL2 (ELAV like RNA binding protein 2)	SID329573519	-0.8
CFAP210 (cilia and flagella associated protein 210)	SID329582649	-2.45 (active)
BTG2 (BTG anti-proliferation factor 2)	SID329575950	-1.13 (active)
STAP1 (signal transducing adaptor family member 1)	SID329578349	2.23 (active)
PUM3 (pumilio RNA binding family member 3)	SID329576879	0.732
SYT12 (synaptotagmin 12)	SID329582020	-0.614
VPS52 (VPS52 subunit of GARP complex)	SID329575238	0.305
PECAM1 (platelet and endothelial cell adhesion molecule 1)	SID329574794	-0.832
CCT3 (chaperonin containing TCP1 subunit 3)	SID329575717	1.07 (active)
ZC3H7A (zinc finger CCCH-type containing 7A)	SID329578641	0.634
VHL (von Hippel-Lindau tumor suppressor)	SID329575792	-0.898
ANKRD27 (ankyrin repeat domain 27)	SID329581515	-0.953
AGO3 (argonaute RISC catalytic component 3)	SID329583350	1.01 (active)
NSF (N-ethylmaleimide sensitive factor, vesicle fusing ATPase)	SID329574676	-1.16 (active)
STAP2 (signal transducing adaptor family member 2)	SID329579774	-0.931
NR1D2 (nuclear receptor subfamily 1 group D member 2)	SID329576899	1.43 (active)
DNAJC2 (DnaJ heat shock protein family (Hsp40) member C2)	SID329578458	-0.636
COMMD1 (copper metabolism domain containing 1)	SID329583023	0.352
CCT6B (chaperonin containing TCP1 subunit 6B)	SID329577323	1.7 (active)
ZBTB44 (zinc finger and BTB domain containing 44)	SID329578642	-2.24 (active)
TSLIG1 (tRNA splicing ligase complex subunit 1)	SID329584052	-0.32
ZNF517 (zinc finger protein 517)	SID329584072	-0.327
TMEM203 (transmembrane protein 203)	SID329582141	1.29 (active)
MCRS1 (microspherule protein 1)	SID329577160	-0.455
VAV3 (vav guanine nucleotide exchange factor 3)	SID329577165	-2.84 (active)
OR4A16 (olfactory receptor family 4 subfamily A member 16)	SID329581290	-1.8 (active)
PQBP1 (polyglutamine binding protein 1)	SID329576954	0.81
RPL37 (ribosomal protein L37)	SID329575177	0.282
PADI4 (peptidyl arginine deiminase 4)	SID329578070	-0.817
BHMT2 (betaine--homocysteine S-methyltransferase 2)	SID329578125	-1.23 (active)
AGBL1 (AGBL carboxypeptidase 1)	SID329582468	0.498
OR2G2 (olfactory receptor family 2 subfamily G member 2)	SID329581297	-2.29 (active)
RHOD (ras homolog family member D)	SID329578750	-1.42 (active)
APBB2 (amyloid beta precursor protein binding family B member 2)	SID329572780	-0.76
PSMC6 (proteasome 26S subunit, ATPase 6)	SID329574990	1.22 (active)
OR5T1 (olfactory receptor family 5 subfamily T member 1)	SID329584395	1.35 (active)
ST14 (ST14 transmembrane serine protease matriptase)	SID329575503	-1.02 (active)
GSG1 (germ cell associated 1)	SID329581387	0.034
OR6K6 (olfactory receptor family 6 subfamily K member 6)	SID329582606	-0.496
PCBP3 (poly(rC) binding protein 3)	SID329579243	-1.13 (active)
ENTPD3 (ectonucleoside triphosphate diphosphohydrolase 3)	SID329573081	-1.91 (active)
LIPI (lipase I)	SID329583009	-0.877
AQP9 (aquaporin 9)	SID329572799	-1.81 (active)
GABBR2 (gamma-aminobutyric acid type B receptor subunit 2)	SID329576662	1.21 (active)
LIME1 (Lck interacting transmembrane adaptor 1)	SID329579467	0.34
OR4N4 (olfactory receptor family 4 subfamily N member 4)	SID329583851	-1.82 (active)
MAEA (macrophage erythroblast attacher, E3 ubiquitin ligase)	SID329577085	-0.265
NCMAP (non-compact myelin associated protein)	SID329584481	1.12 (active)
MBTPS1 (membrane bound transcription factor peptidase, site 1)	SID329576255	0.734
ACTC1 (actin alpha cardiac muscle 1)	SID329572676	-1.31 (active)
RPA1 (replication protein A1)	SID329575147	1.99 (active)
ZNF701 (zinc finger protein 701)	SID329579859	-1.21 (active)
CENPS (centromere protein S)	SID329584272	-0.247
ZNF182 (zinc finger protein 182)	SID329575862	1.85 (active)
GJC2 (gap junction protein gamma 2)	SID329580188	-0.885
HLA-DOA (major histocompatibility complex, class II, DO alpha)	SID329573965	-0.823
KRT86 (keratin 86)	SID329574263	-0.343
CTSL (cathepsin L)	SID329573319	0.779
AZIN1 (antizyme inhibitor 1)	SID329579133	-1.39 (active)
SATB1 (SATB homeobox 1)	SID329575245	0.644
NFYC (nuclear transcription factor Y subunit gamma)	SID329574625	0.585
ERLIN1 (ER lipid raft associated 1)	SID329577272	0.559
TCEA2 (transcription elongation factor A2)	SID329575575	-2.32 (active)
TERF2IP (TERF2 interacting protein)	SID329579269	1.28 (active)
TMTC1 (transmembrane O-mannosyltransferase targeting cadherins 1)	SID329581458	0.736
AP4B1 (adaptor related protein complex 4 subunit beta 1)	SID329577329	-2.93 (active)
CD207 (CD207 molecule)	SID329578793	0.385
PRDM16 (PR/SET domain 16)	SID329580537	-2.57 (active)
SLC24A5	SID329583850	0.568
CPQ (carboxypeptidase Q)	SID329577136	0.711
GDF7 (growth differentiation factor 7)	SID329583044	2.07 (active)
XPC	SID329575830	2.3 (active)
PDCL3 (phosducin like 3)	SID329580812	0.385
BEND6 (BEN domain containing 6)	SID329583581	-1.53 (active)
MTERF2 (mitochondrial transcription termination factor 2)	SID329581195	1.49 (active)
MYL1 (myosin light chain 1)	SID329574527	-2.08 (active)
ZNF571 (zinc finger protein 571)	SID329578995	-0.358
PEX16 (peroxisomal biogenesis factor 16)	SID329576581	-0.252
ELL2 (elongation factor for RNA polymerase II 2)	SID329577737	-0.595
SDHC (succinate dehydrogenase complex subunit C)	SID329575283	-0.972
LCA5 (lebercilin LCA5)	SID329583285	1.11 (active)
AKR1E2 (aldo-keto reductase family 1 member E2)	SID329581412	-0.881
GRIP1 (glutamate receptor interacting protein 1)	SID329577990	-0.718
KRABD3 (KRAB domain containing 3)	SID329581670	-1.56 (active)
HYOU1 (hypoxia up-regulated 1)	SID329577215	-1.05 (active)
YTHDC2 (YTH N6-methyladenosine RNA binding protein C2)	SID329580701	-0.19
CCDC122 (coiled-coil domain containing 122)	SID329583189	1.41 (active)
MRPS28 (mitochondrial ribosomal protein S28)	SID329578606	-0.572
ZNF264 (zinc finger protein 264)	SID329576589	-1.72 (active)
PSG8 (pregnancy specific beta-1-glycoprotein 8)	SID329584578	-1.04 (active)
DYNLL2 (dynein light chain LC8-type 2)	SID329582819	-1.53 (active)
MCCC2 (methylcrotonyl-CoA carboxylase subunit 2)	SID329580554	-0.53
PROK2 (prokineticin 2)	SID329580489	1.11 (active)
ARFGEF1 (ARF guanine nucleotide exchange factor 1)	SID329577243	1.77 (active)
ZEB2 (zinc finger E-box binding homeobox 2)	SID329576826	-0.896
RBMY1E (RNA binding motif protein Y-linked family 1 member E)	SID329584276	-0.653
HSPB7 (heat shock protein family B (small) member 7)	SID329578502	0.212
ALDH1A1 (aldehyde dehydrogenase 1 family member A1)	SID329572740	-1.99 (active)
CCNB3 (cyclin B3)	SID329581852	-0.636
TIMP4 (TIMP metallopeptidase inhibitor 4)	SID329575647	-0.937
HRCT1 (histidine rich carboxyl terminus 1)	SID329584698	-0.133
C22orf42 (chromosome 22 open reading frame 42)	SID329583013	1.97 (active)
PKP3 (plakophilin 3)	SID329577591	-0.648
NOVA1 (NOVA alternative splicing regulator 1)	SID329574653	0.212
